# In patent US20040072240A1:
# Target: HLA A2.1 molecule (human)
# Assay: T2 cells, flow cytometry (BB7.2); reference I9V; P1Y peptide
row,Binder,RA (relative affinity)
1,YLDTGADDTV (modifications not checked) [L10VY],1.5
2,YLDVGDAYFSV (modifications not checked) [P1Y variant of V11V],2.5
3,YLVKLWYQL (modifications not checked) [P1Y variant of P9L],4.6
4,YLVNQIIEQL (modifications not checked) [P1Y variant of E10L],10
5,YLTPLCVSL (modifications not checked) [P1Y variant of K9L],0.7
6,YLTPLCVTL (modifications not checked) [P1Y variant of K9L/T],0.4
7,YLRDLLLIV (modifications not checked) [P1Y variant of R9V],5
8,YLTFGWCFKL (modifications not checked) [P1Y variant of P10L],5
9,YFHHVAREL (modifications not checked) [P1Y variant of A9L],7

# Target: HLA A2.1 molecule (human)
# Assay: T2 cells, flow cytometry (BB7.2); complex dissociation; P1Y peptide
row,Binder,DC50 [h]
1,YLDTGADDTV (modifications not checked) [L10VY],4
2,YLDVGDAYFSV (modifications not checked) [P1Y variant of V11V],3.5
3,YIYQYMDDL (modifications not checked) [P1Y variant of V9L],< 2
4,YLVKLWYQL (modifications not checked) [P1Y variant of P9L],< 2
5,YLVNQIIEQL (modifications not checked) [P1Y variant of E10L],< 2
6,YLTPLCVSL (modifications not checked) [P1Y variant of K9L],> 6
7,YLTPLCVTL (modifications not checked) [P1Y variant of K9L/T],> 6
8,YFHHVAREL (modifications not checked) [P1Y variant of A9L],> 6

# Target: HLA A2.1 molecule (human)
# Assay: T2 cells, flow cytometry; P1Y variant against its natural peptide
Binder,DC50 Y1-DC50 WT [h],RA WT/RA Y1
YLEEELPRL (modifications not checked) [P1Y variant of HBVpol 594],> 6,14.8
YLGCAANWIL (modifications not checked) [P1Y variant of HBV pol 765],4,40.4
